Experimental data reported in PMC5036131, “Fragment-based discovery of a new family of non-peptidic small-molecule cyclophilin inhibitors with potent antiviral activities” (Nature Communications, 2016).

Tests used:
HIV-IIIb = assay: Anti-HIV activity in MT4 cells; conditions: read-out: HIV-IIIb in MT4 cells EC50, 5 days
HCoV-229E = assay: Anti-human coronavirus 229E activity in MRC5 cells; conditions: read-out: HCoV-229E EC50, 72 h, viral cytopathic effect
[1] = read-out: HCV genotype 1b replicon EC50, Huh7 cells, 3 days, HCV RNA

Row | SMILES | EC50 (HIV-IIIb) [µM] | EC50 (HCoV-229E) [µM] | EC50 (HCV genotype 1b replicon; read-out: EC50 HCV (WT) subgenomic replicon, wild-type genotype 1b replicon, comparison with mutated replicons (Table 3)) [µM] | EC50 (HCV genotype 1b replicon; [1]) [µM]
1 | CSc1ccccc1C1CCCN1C(=O)C(CC(C)C)NC(=O)NCc1ccc(N)cc1 (stereo not drawn) | 13 | 27.6 | 2.9 | 1.7
2 | O=C(NC(=O)c1c(Cl)cccc1Cl)NC1c2ccccc2-c2ccccc21 |  |  |  | > 50
3 | O=C(NC(=O)c1c(F)cccc1Cl)NC1c2ccccc2-c2ccccc21 [TMN-355, reference compound] |  |  |  | > 50

Read-outs that look alike come from different tables or passages of the source.
